Results of unrelated studies side by side (data: NIAID ChemDB).

Common to all: target-level tests; organism: HIV-1; target: Protease; read-out: IC50

Conditions beyond the fields shown may differ between rows.

{"smiles": "CC(C)(NC(=O)[C@@H]1CCCN1C(=O)[C@@H](O)[C@H](Cc1ccccc1)NC(=O)[C@H](CC(N)=O)NC(=O)OCc1ccccc1)C(N)=O", "value": "<5 µM"}
{"smiles": "CC(=O)ONc1ccc(S(=O)(=O)N(Cc2ccccc2)C[C@@H](O)[C@H](Cc2ccccc2)NC(=O)CN2C(=O)c3ccccc3C2=O)cc1", "value": "0.045 µM"}
{"smiles": "CC(C)(C)NC(=O)[C@@H]1CSCN1C(=O)[C@@H](O)[C@H](Cc1ccccc1)NC(=O)[C@H](CS(C)(=O)=O)NC(=O)COc1cccc(C(=O)N2CCOCC2)c1", "value": "~0.05 µM"}
{"smiles": "CC(C)c1nc(COC(=O)N[C@H](C(=O)N[C@@H](Cc2ccccc2)[C@@H](O)CN(Cc2ccc(O)cc2)NC(=O)OC(C)(C)C)C(C)C)co1", "read by": "fluorescence", "value": "<0.0005 µM"}
{"smiles": "CC(C)(C)OC(=O)N[C@@H](Cc1ccccc1)[C@H](O)CNC[C@@H](O)[C@H](Cc1ccccc1)NC(=O)OC1(C)CCC1", "read by": "HPLC", "setting": "pH 5.5", "value": "<10 µM"}
{"smiles": "CC(C)(C)OC(=O)N[C@@H](Cc1ccccc1)C(=O)N[C@@H](CO)C(=O)N[C@@H](Cc1ccccc1)[C@@H](O)C(=O)NCC1CCCCC1", "value": "<1000 µM"}
{"smiles": "CC(C)CN(C[C@@H](O)[C@H](Cc1ccccc1)NC(=O)[C@H](C(C)C)N1C(=O)c2ccccc2C1=O)S(=O)(=O)c1ccc(Br)cc1", "value": "0.027 µM"}
{"smiles": "Cc1cccc(CO)c1OCC(=O)N[C@@H](Cc1ccccc1)C[C@H](O)[C@H](Cc1ccccc1)NC(=O)O[C@H]1CO[C@H]2OCC[C@H]21", "value": "<0.0005 µM"}
{"smiles": "Cc1c(O)cccc1C(=O)N[C@@H](CC(C)C)C(=O)N(c1ccccc1)N(CO)C(=O)[C@@H]1CCCN1C(=O)OC(C)(C)C", "read by": "HPLC", "value": "77 µM"}
{"smiles": "Cc1cc(OCCN2CCOCC2)cc(C)c1OCC(=O)N[C@@H](Cc1ccccc1)C[C@H](O)[C@H](Cc1ccccc1)NC(=O)O[C@H]1CO[C@H]2OCC[C@H]21", "value": "<0.0005 µM"}
{"smiles": "CSCC[C@H](NC(=O)c1cccc(O)c1C)C(=O)N(c1ccccc1)N(CCO)C(=O)[C@@H]1CCCN1C(=O)OC(C)(C)C", "read by": "HPLC", "value": "275 µM"}
{"smiles": "CC(C)c1nc(CN(C)C(=O)N[C@H](C(=O)N[C@@H](Cc2ccccc2)[C@@H](O)CN(Cc2ccccc2)NC(=O)OC(C)(C)C)C(C)C)co1", "read by": "fluorescence", "value": "<0.0005 µM"}
{"smiles": "CC(C)CN(C[C@@H](O)[C@H](Cc1ccccc1)NC(=O)CN1C(=O)c2ccccc2C1=O)S(=O)(=O)c1ccc(Br)cc1", "value": "0.03 µM"}
{"smiles": "CC[C@@H](C)[C@H](NC(=O)C1CCCN1C(=O)[C@@H](O)[C@H](Cc1ccccc1)NC(=O)[C@H](CC(C)C)NC(=O)CCc1ccccc1)C(=O)N[C@H](C(N)=O)C(C)C", "value": "<5 µM"}
{"smiles": "O=C(N[C@@H](Cc1ccccc1)C(=O)NC(CO)NC(=O)[C@@H](Cc1ccccc1)NC(=O)OCc1ccccc1)OCc1ccccc1", "read by": "substrate cleavage", "value": ">10 µM"}
{"smiles": "Cc1cc(N)cc(C)c1OCC(=O)N[C@@H](Cc1ccccc1)C[C@H](O)[C@H](Cc1ccccc1)NC(=O)OC1CO[C@H]2OCC[C@@H]12", "value": "<0.0005 µM"}
{"smiles": "CC(C)(C)OC(=O)N[C@@H](Cc1ccccc1)[C@H](O)C(=O)N1CCC[C@H]1C(=O)NCC1CCCCC1", "value": "~1000 µM"}
{"smiles": "Oc1cc(O)cc(Oc2c(O)cc3c(c2O)Oc2cc(Oc4c(O)cc(O)cc4O)c(O)c(O)c2O3)c1", "read by": "HPLC", "value": ">100 µM"}
{"smiles": "CC(C)(C)OC(=O)N[C@@H](Cc1ccccc1)[C@H](O)CNC[C@@H](O)[C@H](Cc1ccccc1)NC(=O)OC(C)(C)[C@H](O)CO", "read by": "HPLC", "setting": "pH 5.5", "value": "<10 µM"}
{"smiles": "CC(=O)ONc1ccc(S(=O)(=O)N(CC(C)C)C[C@@H](O)[C@H](Cc2ccccc2)NC(=O)[C@H](C)N2C(=O)c3ccccc3C2=O)cc1", "value": "0.012 µM"}
{"smiles": "Cc1cc2oc(=O)[nH]c2c(C)c1OCC(=O)N[C@@H](Cc1ccccc1)C[C@H](O)[C@H](Cc1ccccc1)NC(=O)O[C@H]1CO[C@H]2OCC[C@H]21", "value": "<0.0005 µM"}
{"smiles": "CC(C)(C)OC(=O)N[C@@H](Cc1ccccc1)C(=O)NC(CCO)NC(=O)[C@@H](Cc1ccccc1)NC(=O)OC(C)(C)C", "read by": "substrate cleavage", "value": ">10 µM"}
{"smiles": "CC[C@H](C)[C@H](NC(=O)[C@@H]1CCCN1C(=O)[C@@H](O)[C@H](Cc1ccccc1)NC(=O)[C@H](CO)NC(=O)CCc1ccccc1)C(=O)N[C@H](C(N)=O)C(C)C", "value": "<5 µM"}
{"smiles": "CC(C)[C@H](NC(=O)OCc1ccccn1)C(=O)N[C@@H](Cc1ccccc1)[C@@H](O)CN(Cc1ccccc1)NC(=O)OCc1cccnc1", "read by": "fluorescence", "value": "<0.0005 µM"}
{"smiles": "Cc1cc(N)cc(C)c1OCC(=O)N[C@@H](Cc1ccccc1)C[C@H](O)[C@H](Cc1ccccc1)NC(=O)O[C@H]1CO[C@H]2OCC[C@H]21", "value": "<0.0005 µM"}
{"smiles": "O=C(N[C@@H](Cc1ccccc1)C(=O)NC(CO)NC(=O)[C@@H](Cc1ccccc1)NC(=O)OCC1c2ccccc2-c2ccccc21)OCC1c2ccccc2-c2ccccc21", "read by": "substrate cleavage", "value": ">10 µM"}
{"smiles": "N[C@@H](CO)C(=O)N[C@@H](Cc1ccccc1)[C@@H](O)C(=O)NCC1CCCCC1", "value": ">1000 µM"}
{"smiles": "CSCC[C@H](NC(=O)c1cccc(O)c1C)C(=O)N(c1ccccc1)N(CO)C(=O)[C@@H]1CCCN1C(=O)OC(C)(C)C", "read by": "HPLC", "value": "430 µM"}
{"smiles": "CC(C)CN(C[C@@H](O)[C@H](Cc1ccccc1)NC(=O)CCN1C(=O)c2ccccc2C1=O)S(=O)(=O)c1ccc(Br)cc1", "value": "0.048 µM"}
{"smiles": "CC(C)c1nc(CN(C)C(=O)N[C@H](C(=O)NN(Cc2ccccc2)C[C@H](O)[C@H](Cc2ccccc2)NC(=O)OCc2ccccc2)C(C)C)co1", "read by": "fluorescence", "value": "<0.0005 µM"}
{"smiles": "CC(C)[C@H](NC(=O)OCc1ccccc1)C(=O)N[C@@H](Cc1ccccc1)[C@H](O)CNC[C@H](O)[C@H](Cc1ccccc1)NC(=O)OC(C)(C)C", "read by": "HPLC", "setting": "pH 5.5", "value": "10 µM"}
{"smiles": "Cc1c(O)cccc1C(=O)N[C@@H](CC(C)C)C(=O)N(c1ccccc1)N(CCO)C(=O)[C@@H]1CCCN1C(=O)OC(C)(C)C", "read by": "HPLC", "value": "85 µM"}
{"smiles": "CC(C)c1nc(CN(C)C(=O)N[C@H](C(=O)NN(Cc2ccccc2)C[C@H](O)[C@H](Cc2ccccc2)NC(=O)OCc2cncs2)C(C)C)cs1", "read by": "fluorescence", "value": "<0.0005 µM"}
{"smiles": "Cc1cc(N)cc(C)c1S(=O)(=O)CC(=O)N[C@@H](Cc1ccccc1)C[C@H](O)[C@H](Cc1ccccc1)NC(=O)O[C@H]1CO[C@H]2OCC[C@H]21", "value": "0.012 µM"}
{"smiles": "CC(C)c1nc(CN(C)C(=O)N[C@H](C(=O)NN(Cc2ccccc2)C[C@H](O)[C@H](Cc2ccccc2)NC(=O)OCc2ccno2)C(C)C)co1", "read by": "fluorescence", "value": "<0.0005 µM"}
{"smiles": "Cc1cccc(C)c1N(C)CC(=O)N[C@@H](Cc1ccccc1)C[C@H](O)[C@H](Cc1ccccc1)NC(=O)O[C@H]1CO[C@H]2OCC[C@H]21", "value": "0.0024 µM"}
{"smiles": "CC(C)[C@H](NC(=O)OCc1ccccc1)C(=O)N[C@@H](Cc1ccccc1)[C@H](O)CNC[C@@H](O)[C@H](Cc1ccccc1)NC(=O)[C@H](CC(N)=O)NC(=O)OCc1ccccc1", "read by": "HPLC", "setting": "pH 5.5", "value": "<10 µM"}
{"smiles": "CNc1cc(C)c(OCC(=O)N[C@@H](Cc2ccccc2)C[C@H](O)[C@H](Cc2ccccc2)NC(=O)OC2CO[C@H]3OCC[C@@H]23)c(C)c1", "value": "<0.0005 µM"}
{"smiles": "CC(C)(C)OC(=O)N[C@@H](Cc1ccccc1)C(=O)NC(CCO)NC(=O)[C@H](Cc1ccccc1)NC(=O)OC(C)(C)C", "read by": "substrate cleavage", "value": ">10 µM"}

The first 2 rows once more:

CC(C)(NC(=O)[C@@H]1CCCN1C(=O)[C@@H](O)[C@H](Cc1ccccc1)NC(=O)[C@H](CC(N)=O)NC(=O)OCc1ccccc1)C(N)=O ; value: <5 µM
CC(=O)ONc1ccc(S(=O)(=O)N(Cc2ccccc2)C[C@@H](O)[C@H](Cc2ccccc2)NC(=O)CN2C(=O)c3ccccc3C2=O)cc1 ; value: 0.045 µM

ICn is the concentration giving n% inhibition.